Data on one molecule can be found in paper PMC9797896 (Medicinal Chemistry Research, 2022).

Common to all, as to test: cell-based
Experiment [1] addresses SARS-CoV-2 RdRp (nsp12/7/8 complex) (Severe acute respiratory syndrome coronavirus 2, UniProt P0DTD1, P4715L). Conditions: Inhibition of SARS-CoV-2 RdRp in vitro (EC50) Nsp12.
Experiment [2] deals with SARS-CoV-2 RdRp in the presence of ExoN (nsp12/7/8 + nsp14/10 complex) (Severe acute respiratory syndrome coronavirus 2, UniProt P0DTD1, I5967V/P4715L). To be noted: Inhibition of SARS-CoV-2 RdRp in vitro (EC50) Nsp12 + Nsp14.
Experiment [3] deals with SARS-CoV-2 RdRp in the presence of mutated ExoN (nsp12/7/8 + nsp14mutant/10 complex, D90A/E92A) (Severe acute respiratory syndrome coronavirus 2, UniProt P0DTD1, P4715L).

Where “and” joins values, the source holds several entries; their conditions need not be identical. Identical values can stand only once.

A word on the EC50: it is the concentration at which the effect is half-maximal. As for `O=c1[nH]cnc2c([C@@H]3N[C@H](CO)[C@@H](O)[C@H]3O)c[nH]c12` [Forodesine, forodesine], the EC50 in experiment [1] was ~230 nM and 230 nM; in experiment [2], ~330 nM and 330 nM; in experiment [3], 270 ± 30 nM.
